{"source": "PubChem BioAssay AID504761 (Drosophila RNAi Screening Center, 2011)", "aim": "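Fly genes whose silencing reduces dengue virus type 2 infection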 (primary screen)", "system": "D.Mel-2 cells from Drosophila", "reagents": "long dsRNA against Drosophila genes", "treatment": "infection with dengue virus type 2; dose and infection time not stated", "detection": "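Per well on two replicate plates, imaging gave the percent of cells positive for viral envelope protein, ranked by infection, and a nuclear count of cells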", "reading the numbers": "infection score: higher = more virus-infected cells; cell count: higher = more cells in the well", "rule for the call": "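Very low infection ranking in both replicate wells (chance probability at most 0.065), then a retest showing infection dropped 1.5-fold or more at p below 0.05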", "calls": "active = confirmed: knock-down lowers infection; inactive = not picked or not confirmed", "note": "The screen tested about 22,000 reagents; below is a random part of those that have a named target and a result. Over the whole deposit, 116 (0.52%) are marked active. 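Calls depend on retest data that are not deposited; infection was ranked per plate without normalising between plates; the unit of the infection score is not given.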 Raw values are not corrected between plates. Names joined by + are all predicted targets of the reagent. Not all columns of the deposit are shown. The record does not give: the amount of reagent, the time to read-out."}
The first 2 entries, ahead of the listing:
{"predicted target": "Tsp26A (GeneID 33838)", "dsRNA": "DRSC03135", "infection score, replicate 1": 9.05, "cell count, replicate 1": 5437, "call": "inactive"}
{"predicted target": "CG18294 (GeneID 40115)", "dsRNA": "DRSC09891", "infection score, replicate 1": 8.21, "cell count, replicate 1": 6346, "call": "inactive"}

The list itself, from the start:
{"predicted target": "Tsp26A (GeneID 33838)", "dsRNA": "DRSC03135", "infection score, replicate 1": 9.05, "cell count, replicate 1": 5437, "call": "inactive"}
{"predicted target": "CG18294 (GeneID 40115)", "dsRNA": "DRSC09891", "infection score, replicate 1": 8.21, "cell count, replicate 1": 6346, "call": "inactive"}
{"predicted target": "CG14277 (GeneID 34129)", "dsRNA": "DRSC02380", "infection score, replicate 1": 6.1, "cell count, replicate 1": 5496, "call": "inactive"}
{"predicted target": "COX6AL2 (GeneID 40066)", "dsRNA": "DRSC10082", "infection score, replicate 1": 5.98, "cell count, replicate 1": 7210, "call": "inactive"}
{"predicted target": "Nepl8 (GeneID 34983)", "dsRNA": "DRSC02759", "infection score, replicate 1": 13.5, "cell count, replicate 1": 5498, "call": "inactive"}
{"predicted target": "CG10089 (GeneID 39517)", "dsRNA": "DRSC09695", "infection score, replicate 1": 0.63, "cell count, replicate 1": 6680, "call": "inactive"}
{"predicted target": "CG10089 (GeneID 39517)", "dsRNA": "DRSC25988", "infection score, replicate 1": 5.88, "cell count, replicate 1": 6238, "call": "inactive"}
{"predicted target": "Cp110 (GeneID 33136)", "dsRNA": "DRSC20630", "infection score, replicate 1": 1.58, "cell count, replicate 1": 6384, "call": "inactive"}
{"predicted target": "Cp110 (GeneID 33136)", "dsRNA": "DRSC21716", "infection score, replicate 1": 13.9, "cell count, replicate 1": 6451, "call": "inactive"}
{"predicted target": "CG31226 (GeneID 318633)", "dsRNA": "DRSC21724", "infection score, replicate 1": 3.35, "cell count, replicate 1": 6389, "call": "inactive"}
{"predicted target": "CG4619 (GeneID 34321)", "dsRNA": "DRSC02764", "infection score, replicate 1": 16, "cell count, replicate 1": 6155, "call": "inactive"}
{"predicted target": "Pgant6 (GeneID 38346)", "dsRNA": "DRSC08552", "infection score, replicate 1": 16.7, "cell count, replicate 1": 6440, "call": "inactive"}
{"predicted target": "Pgant6 (GeneID 38346)", "dsRNA": "DRSC26927", "infection score, replicate 1": 22.4, "cell count, replicate 1": 5845, "call": "inactive"}
{"predicted target": "CG8272 (GeneID 35875)", "dsRNA": "DRSC07134", "infection score, replicate 1": 18.4, "cell count, replicate 1": 6068, "call": "inactive"}
{"predicted target": "egl (GeneID 37757)", "dsRNA": "DRSC23380", "infection score, replicate 1": 2.62, "cell count, replicate 1": 6108, "call": "inactive"}
{"predicted target": "CG14417 (GeneID 31274)", "dsRNA": "DRSC18638", "infection score, replicate 1": 1.06, "cell count, replicate 1": 471, "call": "inactive"}
{"predicted target": "cyst (GeneID 35237)", "dsRNA": "DRSC02023", "infection score, replicate 1": 16.8, "cell count, replicate 1": 6609, "call": "inactive"}
{"predicted target": "mod (GeneID 43764)", "dsRNA": "DRSC16999", "infection score, replicate 1": 5.2, "cell count, replicate 1": 6148, "call": "inactive"}
{"predicted target": "mod (GeneID 43764)", "dsRNA": "DRSC28409", "infection score, replicate 1": 11.5, "cell count, replicate 1": 2963, "call": "inactive"}
{"predicted target": "CG30109 + CG30108", "dsRNA": "DRSC05674", "infection score, replicate 1": 2.07, "cell count, replicate 1": 5887, "call": "inactive"}
{"predicted target": "CG13428 (GeneID 37317)", "dsRNA": "DRSC06390", "infection score, replicate 1": 2.6, "cell count, replicate 1": 5885, "call": "inactive"}
